From paper PMC7190985 (Frontiers in Microbiology, 2020)

Tests used:
VACV WR-Luc virus = settings: 2 h at 37°C
VACV WR A4-YFP = experiment: Confocal imaging of virus-loaded actin tails (BSC40 cells); format: cell-based, vaccinia virus; settings: 10 μM, 24 h, MOI 1
VACV-WR-GFP virus = experiment: Viral spread assay (VACV-WR-GFP, HeLa cells, 24 h, GFP imaging); format: cell-based, vaccinia virus

For `O=C1CN(C(=O)c2nccs2)C(c2ccccc2)c2cc(Cl)ccc2N1` (centres unmarked), the “viral entry (luciferase RLU)” value (VACV WR-Luc virus; 10 μM) was “reduced viral entry”, the “viral entry (luciferase RLU)” value (VACV WR-Luc virus; lower concentrations tested (2.5 and 5 μM)) was “did not markedly decrease viral entry” and the “virus-loaded actin tails per cell” value (VACV WR A4-YFP) was “significant decrease in virus-loaded tails”. It also gave a pIC50 (VACV-WR-GFP virus) of 6.15 and an IC90 (VACV-WR-GFP virus) of 1700 nM.

pIC50: −log10 of the molar value. Where two headings read alike, the source gives them in different places.
